Anti-infective test results gathered from many reports (values: NIAID ChemDB through PubChem).

All rows: growth or infection tests; species: Mycobacterium tuberculosis

MIC50, MIC90 and the like: level of inhibition, or share of isolates inhibited.

smiles,strain or isolate,mutations,cells,method,read-out,tested at,value
OC[C@H]1N[C@@H](CSc2ccncc2)[C@@H](O)[C@@H]1O,H37Ra,-,-,BACTEC,EC50,-,>12.5 µg/mL
O=[N+]([O-])c1cccc2c1Oc1ccccc1O2,H37Rv,-,-,resazurin,MIC bound,-,>6.25 µg/mL
Cn1c(=O)c(N=Nc2ccccc2[N+](=O)[O-])c(O)c2ccccc21,H37Rv,-,-,resazurin,MIC,-,<6.25 µg/mL
O=C(N/N=C/c1ccc(Br)cc1)c1cc(-c2ccc(F)cc2F)ccc1O,H37Rv,-,-,resazurin,MIC,-,>6.25 µg/mL
O=c1[nH]c2c([N+](=O)[O-])cccc2c(O)c1N=Nc1cccc(Cl)c1,H37Rv,-,-,resazurin,inhibition,6.25 µg/mL,82%
Cc1ccc(/C=C/C(=O)c2ccncc2)cc1,H37Rv,-,-,resazurin,EC90,-,≥6.25 µg/mL
Cc1nc(Cl)c(C(N)=O)c(C)c1Cl,H37Rv,-,-,BACTEC,inhibition,12.5 µg/mL,-5%
CC(O)C1C(=O)N2C(C(=O)O)C=C(SC3CN(C4=NCCC4)C3)C12,H37Rv,-,THP-1,luminescence,MIC90,-,46.48 µM
O=C(Nc1sc(-c2ccc(OCc3ccccc3Cl)cc2)cc1C(=O)O)c1ccc(Cl)cc1,H37Rv,-,-,resazurin,MIC,-,31.7 µM
C[C@]1(COc2ccc(N3CCC(Oc4ccc(OC(F)(F)F)cc4)CC3)cc2)Cn2cc([N+](=O)[O-])nc2O1,H37Rv,-,-,MTT,MIC,-,0.01 µM
Clc1ccc(Cl)c(N/N=C/c2ccsc2)c1,H37Rv (ATCC 27294),-,-,resazurin,inhibition,6.25 µg/mL,70%
N#Cc1ccc(SC[C@@H]2N[C@H](CO)[C@@H](O)[C@@H]2O)cc1,H37Ra,-,-,BACTEC,EC50,-,>12.5 µg/mL
COc1ccc2c(c1)c1c3n2CCNN=C3CCC1,H37Rv,-,-,BACTEC,inhibition,12.5 µg/mL,0%
COc1ccc(OC)c(/C=C2/N=C(c3ccc(C)cc3)OC2=O)c1,H37Rv,-,-,resazurin,MIC,-,4 µg/mL
CC1(O)c2ccccc2-c2ccccc2C1(C)O,H37Rv,-,-,resazurin,MIC bound,-,>6.25 µg/mL
CCOC(=O)C1=C(C)NC(=O)NC1c1ccccc1,H37Rv,-,-,-,EC50,-,>10 µg/mL
CC[C@]1(O)C[C@H]2CN(CCC3=C(NC4CC=CC=C34)[C@@](C(=O)OC)(c3cc4c(cc3OC)N(C)[C@H]3[C@@](O)(C(=O)NCCCCCCCCCCCC(=O)O)[C@H](O)[C@]5(CC)C=CCN6CC[C@]43[C@@H]65)C2)C1,H37Rv,-,-,BACTEC,inhibition,12.5 µg/mL,12%
Cc1ccc(C2=N/C(=C/c3ccc([N+](=O)[O-])cc3)C(=O)O2)cc1,H37Rv,-,-,resazurin,MIC,-,8 µg/mL
CO[C@H]1/C=C/O[C@@]2(C)Oc3c(C)c(O)c4c(O)c(c(/C=N/N5CCN(C)CC5)c(O)c4c3C2=O)NC(=O)/C(C)=C\C=C\[C@H](C)[C@H](O)[C@@H](C)[C@@H](O)[C@@H](C)[C@H](OC(C)=O)[C@@H]1C,CSU22,-,-,-,MIC,-,>5 µg/mL
C=C(CNCCCCCCCCCCCCC)N(CCC[NH3+])CC(=O)N(CC(=O)N(CC(=O)N(CCCCN)CC(N)=O)[C@H](C)c1ccccc1)[C@@H](C)c1ccccc1,H37Ra,-,-,resazurin,MIC,-,6.6 µM
Cc1cc2nc(C(=O)NC(C)C)cc(-c3ccccc3Cl)c2c(C)c1-c1ccncc1,-,-,-,fluorescence,MIC90,-,0.6 µM
O=C(/C=C/c1ccccc1O)c1ccncc1,H37Rv,-,-,resazurin,EC90,-,≥50 µg/mL
CO[C@H]1/C=C/O[C@@]2(C)Oc3c(C)c(O)c4c(O)c(c(/C=N/N5CCN(C6CCCC6)CC5)c(O)c4c3C2=O)NC(=O)/C(C)=C\C=C\[C@H](C)[C@H](O)[C@@H](C)[C@@H](O)[C@@H](C)[C@H](OC(C)=O)[C@@H]1C,Erdman,-,-,-,MIC,-,0.6 µg/mL
COC(=O)Nc1sc(-c2ccc(OCc3c(Cl)cccc3Cl)cc2)cc1C(=O)O,H37Rv,-,-,resazurin,EC50,-,21.31 µM
CC1NC(=O)C2Cc3ccc(O)c(c3)Oc3ccc(cc3)[C@H](O)C(C(=O)N2C)N(C)C(=O)C(C)NC(=O)C(Cc2ccc(O)cc2)N(C)C(=O)C(C)NC1=O,H37Rv,-,-,resazurin,inhibition,6.25 µg/mL,9%
Cc1ccc(-c2cc(-c3ccc(Cl)cc3)nc(/N=C3\C(=O)N(CN4CCOCC4)c4ccc(Br)cc43)n2)cc1,H37Rv,-,-,BACTEC,EC50,-,<6.25 µg/mL
Cc1ccc(NC(=O)/C=C/C(=O)N2C/C(=C\c3ccccc3)C(=O)/C(=C/c3ccccc3)C2)cc1,H37Rv,-,-,-,EC50,-,>6.25 µg/mL
Clc1ccc(Cl)c(N/N=C/c2c[nH]c3ccccc23)c1,H37Rv (ATCC 27294),-,VERO,resazurin,inhibition,6.25 µg/mL,97%
O=C1CCCCCCCCCCCCCCCO1,TAC-R,-,-,-,MIC,-,12.8 µg/mL
O=C1/C(=C\c2ccccc2)CN(C(=O)c2ccc(/C=C/C(=O)c3ccccc3)cc2)C/C1=C/c1ccccc1,H37Rv,-,-,-,EC50,-,>6.25 µg/mL
O=C1CCN=C(NN(O)O)N1,H37Rv,-,-,BACTEC,inhibition,12.5 µg/mL,2%
COc1cc(OC)c2c(O)c3c(=O)cc(C)oc3c(-c3c4cc(=O)cc(OC)c4c(O)c4c(O)cc(C)oc34)c2c1,H37Rv,-,-,-,MIC,-,43 µM
Cc1ccc(S(=O)(=O)Oc2ccc3sc4cccc(NCCN(C)C)c4c(=O)c3c2)cc1,H37Rv,-,-,BACTEC,inhibition,12.5 µg/mL,100%
O=C(NCc1ccc([N+](=O)[O-])cc1)c1ncccc1O,CNCTC MY 331/8,-,-,-,MIC,-,125 µM
Cc1ccc2nc(/C=C(\O)c3ccccc3Cl)c(=O)oc2c1,H37Rv,-,-,-,MIC,-,>100 µg/mL
Nc1ccc(/C=C/C(=O)c2ccncc2)cc1,H37Rv,-,-,resazurin,EC90,-,≥50 µg/mL
Nc1cccc2c1nc(NCCO)c1ccccc12,H37Rv,-,-,BACTEC,inhibition,12.5 µg/mL,47%
COc1ccc(/C=N/NC(=O)c2cc(-c3ccc(F)cc3F)ccc2O)cc1,H37Rv,-,-,resazurin,MIC,-,>6.25 µg/mL
CC(=O)c1c(C)[nH]c(C(=O)N/N=C/c2cccc(Cl)c2)c1C,H37Rv,-,-,resazurin,inhibition,6.25 µg/mL,29%
CCOC(=O)c1cc(-c2ccc(OCc3c(Cl)cccc3Cl)cc2)sc1NC(=O)C(=O)O,H37Rv,-,-,resazurin,EC50,-,31.35 µM
O=C(/C=C/C(=O)N1C/C(=C\c2ccccc2)C(=O)/C(=C/c2ccccc2)C1)Nc1ccc(Cl)cc1,H37Rv,-,-,-,EC50,-,>6.25 µg/mL
CN(C)/N=C/c1c[nH]c2ccccc12,H37Rv (ATCC 27294),-,-,resazurin,inhibition,6.25 µg/mL,9%
Cc1ccc(/C=C/C(=O)N2C/C(=C\c3ccccc3)C(=O)/C(=C/c3ccccc3)C2)cc1,H37Rv,-,-,-,inhibition,6.25 µg/mL,8%
COc1cc(OC)c2c(O)c3c(=O)cc(C)oc3c(-c3c(O)c4c(O)cc(C)oc4c4c(OC)cc(=O)cc34)c2c1,H37Rv,-,-,-,MIC,-,21.5 µM
CCc1cc(C(N)=S)ccn1,pMV261 ETH-resistant,-,-,-,MIC,-,30 µg/mL
O=c1c2ccccc2sc2c(CO)ccc(NCCN3CCCCC3)c12,H37Rv,-,VERO,BACTEC,MIC,-,12.5 µg/mL
CCOC(=O)C1=C(C)NC(=O)NC1c1ccc(OC)cc1,H37Rv,-,-,-,EC50,-,>10 µg/mL
O=C(Nc1sc(-c2ccc(OCc3c(Cl)cccc3Cl)cc2)cc1C(=O)O)c1cccs1,H37Rv,-,-,resazurin,EC50,-,70.03 µM
CO[C@H]1CCC[C@H]2C1=C(C(=O)OC(C)OC(=O)OC1CCCCC1)N1C(=O)[C@H]([C@@H](C)O)[C@@H]21,H37Rv,-,THP-1,luminescence,MIC50,-,0.85 µM
O=C(Nc1ccc(Br)cc1)c1ncccc1S,CNCTC MY 331/8,-,-,-,MIC,-,62.5 µM
O=[N+]([O-])/C=C/c1c(-c2ccccc2)[nH]c2ccccc12,H37Rv (ATCC 27294),-,-,resazurin,inhibition,6.25 µg/mL,38%
Cc1ncc([N+](=O)[O-])n1CCNC(=O)CCCn1ccnc1[N+](=O)[O-],H37Rv,-,-,resazurin,inhibition,6.25 µg/mL,-39%
O=c1oc2ccc3ccccc3c2c(O)c1N=Nc1ccc(Cl)cc1,H37Rv,-,-,resazurin,MIC,-,<6.25 µg/mL
CN[C@@H]1[C@@H](O)C(O[C@@H]2[C@@H](O)[C@H](OC3O[C@H](CN)[C@@H](O)[C@H](O)[C@H]3O)[C@@H](N)C[C@H]2NC(=O)[C@@H](O)CN)OC[C@]1(C)O,OR102,-,-,-,MIC,-,3.13 µg/mL
C/C(=C\c1c(-c2ccccc2)[nH]c2ccccc12)[N+](=O)[O-],H37Rv (ATCC 27294),-,-,resazurin,inhibition,6.25 µg/mL,39%
O=c1[nH]c2c(Cl)c(Cl)ccc2c(O)c1N=Nc1ccc([N+](=O)[O-])cc1,H37Rv,-,-,resazurin,inhibition,6.25 µg/mL,89%
Cc1ncc(CO)c(C(=O)O)c1O,H37Rv,-,-,resazurin,inhibition,6.25 µg/mL,5%
CCCCCCNc1sc(-c2ccc(OCc3c(Cl)cccc3Cl)cc2)cc1C(=O)O,H37Rv,-,-,resazurin,EC50,-,55.59 µM
O=C1/C(=C/c2ccccc2)CN(C(=O)/C=C/c2ccc(Cl)c(Cl)c2)C/C1=C\c1ccccc1,H37Rv,-,-,-,inhibition,6.25 µg/mL,2%
CCOC(=O)C1=C(C)NC(C)=C(C(=O)OCC)C1c1ccc(OC)cc1,H37Rv,-,-,-,EC50,-,>10 µg/mL
Cc1ccc(NC(=O)c2ccccc2O)cc1,CNCTC MY 331/8,-,-,-,MIC,-,62.5 µM
O=c1oc2ccc(-c3ccccc3)cc2c(O)c1N=Nc1c(Cl)cccc1Cl,H37Rv,-,-,resazurin,MIC,-,<6.25 µg/mL
O=[N+]([O-])c1cc(Cl)ccc1S(=O)(=O)c1ccc(Cl)c2c1NCCC2,H37Rv,-,-,resazurin,MIC bound,-,>6.25 µg/mL
Cc1cc(C)c(/C=N/NC(=O)c2cc(-c3ccc(F)cc3F)ccc2O)c(C)c1,H37Rv,-,-,resazurin,inhibition,6.25 µg/mL,31%
O=C(Nc1ccccc1)c1ncccc1S,CNCTC MY 331/8,-,-,-,MIC,-,32 µM
CC(=O)c1c(C)[nH]c(C(=O)N/N=C/c2ccc([N+](=O)[O-])cc2)c1C,H37Rv,-,-,resazurin,inhibition,6.25 µg/mL,32%
O=S(=O)(C[C@@H]1N[C@H](CO)[C@@H](O)[C@@H]1O)c1ccccc1,H37Ra,-,-,BACTEC,EC50,-,>12.5 µg/mL
CC1(C)OC(=O)c2c(cc(N3CCOCC3)oc2=O)O1,H37Rv,-,-,BACTEC,MIC bound,-,>12.5 µg/mL
CCCNc1sc(-c2ccc(OCc3c(Cl)cccc3Cl)cc2)cc1C(=O)O,H37Rv,-,-,resazurin,EC50,-,21.31 µM
CCOC(=O)C1=C(C)NC(C)=C(C(=O)OCC)C1c1ccccc1,H37Rv,-,-,-,EC50,-,>10 µg/mL
NC(=O)c1c(NC(=O)C2CC2)sc2cc(O)c(Br)cc12,H37Rv,-,-,resazurin / absorbance,MIC,-,>100 µM
CCN(CC)CCCNc1ccc2ncn3c4ccc(O)cc4c(=O)c1c23.Cl,H37Rv,-,-,BACTEC,MIC bound,-,>12.5 µg/mL
OC[C@H]1O[C@H](CSc2ccccc2)[C@@H](O)[C@@H]1O,H37Ra,-,-,-,MIC,-,>128 µg/mL
Cc1ccc(/C=C2/N=C(c3ccc(C)cc3)OC2=O)cc1,H37Rv,-,-,resazurin,MIC,-,16 µg/mL
COC(=O)[C@@]1(C)CCC[C@@]2(C)c3cc(Br)c(C(C)C)cc3CC[C@H]21,H37Rv,-,-,BACTEC,MIC bound,-,>12.5 µg/mL
O=C(/C=C/C(=O)N1C/C(=C\c2ccccc2)C(=O)/C(=C/c2ccccc2)C1)Nc1ccc([N+](=O)[O-])cc1,H37Rv,-,-,-,inhibition,6.25 µg/mL,98%
O=C(N/N=C/c1ccc(O)cc1)c1cc(-c2ccc(F)cc2F)ccc1O,H37Rv,-,-,resazurin,MIC,-,>6.25 µg/mL
NNC(=O)CNc1ccccc1Br,H37Rv,-,-,BACTEC,MIC bound,-,>12.5 µg/mL
CCN(CC)c1ccc(/C=C2/N=C(c3ccc(C)cc3)OC2=O)cc1,H37Rv,-,-,resazurin,MIC,-,4 µg/mL
O=C(/C(C=NC(=S)c1ccncc1)=C(/O)C1=CC=CCC1)c1ccccc1,H37Rv,-,-,resazurin,inhibition,6.25 µg/mL,-124%
Clc1ccc(Cl)c(N/N=C/c2csc3ccccc23)c1,H37Rv (ATCC 27294),-,-,resazurin,inhibition,6.25 µg/mL,96%
NC(=O)c1ncccc1C(=O)O,H37Rv,-,-,resazurin,MIC bound,-,>6.25 µg/mL
CO[C@@H]1C/C=C\C=C\C[C@H](C)[C@@H](O)C[C@@H](O)[C@H](C)[C@H](O)CC(=O)O[C@H]([C@H](C)[C@H](O)/C=C(\C)CC/C=C/C=C/CC(O)CC(C)CCC(=O)O)C[C@H](O)CCC1,HUG.MB.3649,inhA mutant isoniazid resistant,-,resazurin / absorbance,MIC,-,1.7 µg/mL

MIC bound comes from a single tested concentration. Rows are shuffled and stem from different studies. An empty or dashed field is not shown. Inhibition is in % at the dose shown (toxicity tests: loss of growth or viability). ECn is the concentration giving n% inhibition of infection, replication or growth.